Pooled drug test results. Numbers come from NIAID ChemDB, via PubChem.

All rows: whole-cell or culture tests; species: Haemophilus influenzae; measure: MIC

Lines come from different laboratories, so protocols vary.

compound	strain or isolate	result
CC[C@H]1OC(=O)C[C@@H](O)[C@H](C)[C@@H](O[C@@H]2O[C@H](C)[C@@H](O)[C@H](N(C)C)[C@H]2O)C(C=O)C[C@@H](C)C(=O)/C=C/C(C)=C/[C@@H]1COC(=O)Nc1ccc(OC)cc1	33929 (ampicillin-resistant)	2 µg/mL
CC[C@H]1OC(=O)[C@H](C)[C@@H](O[C@H]2C[C@@](C)(OC)[C@@H](O)[C@H](C)O2)[C@H](C)[C@@H](O[C@H]2O[C@@H](C)C[C@@H](N(C)C)[C@@H]2O)[C@](C)(O)C[C@@H](C)C(=O)[C@H](C)[C@@H](O)[C@]1(C)O	33929 (ampicillin-resistant)	4 µg/mL
CC[C@H]1OC(=O)[C@H](C)C(=O)[C@H](C)[C@@H](O[C@@H]2O[C@H](C)C[C@H](N(C)C)[C@H]2O)[C@@]2(C)C[C@@H](C)C(=NC(C)=O)[C@H](C)[C@@H](OC/C(=N\OCC#Cc3ncccn3)CO2)[C@]1(C)O	33929 (ampicillin-resistant)	8 µg/mL
CC[C@H]1OC(=O)[C@H](C)C(=O)[C@H](C)[C@@H](O[C@@H]2O[C@H](C)C[C@H](N(C)C)[C@H]2O)[C@@](C)(OCC2CC2c2cnc3ccccc3c2)C[C@@H](C)C(=O)[C@H](C)[C@H]2NC(=O)O[C@@]21C	DILL	4 µg/mL
CC[C@H]1OC(=O)C[C@@H](O)[C@H](C)[C@@H](O[C@@H]2O[C@H](C)[C@@H](O)[C@H](N(C)C)[C@H]2O)C(C=O)C[C@@H](C)C(=O)/C=C/C(C)=C/[C@@H]1COC(=O)Nc1ccc(F)c(F)c1	33929 (ampicillin-resistant)	1 µg/mL
CC[C@H]1OC(=O)[C@@](C)(F)C(=O)[C@H](C)[C@@H](O[C@@H]2O[C@H](C)C[C@H](N(C)C)[C@H]2O)[C@@]2(C)C[C@@H](C)C(=NC(C)=O)[C@H](C)[C@@H](OC/C(=N\OCc3cccc(C(N)=O)c3)CO2)[C@]1(C)O	33929 (ampicillin-resistant)	4 µg/mL
CC[C@H]1OC(=O)C[C@@H](O)[C@H](C)[C@@H](O[C@@H]2O[C@H](C)[C@@H](O)[C@H](N(C)C)[C@H]2O)C(C=O)C[C@@H](C)C(=O)/C=C/C(C)=C/[C@@H]1CO	33929 (ampicillin-resistant)	1 µg/mL
CC[C@H]1OC(=O)[C@H](C)C(=O)[C@H](C)[C@@H](O[C@@H]2O[C@H](C)C[C@H](N(C)C)[C@H]2O)[C@@](C)(OC/C=C/c2cnc3ccccc3c2)C[C@@H](C)C(=O)[C@H](C)[C@H]2N(N)C(=O)O[C@]12C	DILL	4 µg/mL
CC[C@H]1OC(=O)[C@H](C)C(=O)[C@H](C)[C@@H](O[C@@H]2O[C@H](C)C[C@H](N(C)C)[C@H]2O)[C@@]2(C)C[C@@H](C)C(=NC(C)=O)[C@H](C)C(OC/C(=C\c3cnc4ccccc4c3)CO2)[C@]1(C)O	33929 (ampicillin-resistant)	16 µg/mL
CC[C@H]1OC(=O)[C@H](C)C(=O)[C@H](C)[C@@H](O[C@@H]2O[C@H](C)C[C@H](N(C)C)[C@H]2O)[C@@]2(C)C[C@@H](C)C(=NC(C)=O)[C@H](C)[C@@H](OC/C(=N\OCc3ccc4nc(N)sc4c3)CO2)[C@]1(C)O	33929 (ampicillin-resistant)	2 µg/mL
CC[C@H]1OC(=O)[C@H](C)C(=O)[C@H](C)[C@@H](O[C@@H]2O[C@H](C)C[C@H](N(C)C)[C@H]2O)[C@@]2(C)C[C@@H](C)C(=NC(C)=O)[C@H](C)C(OC/C=C/CO2)[C@]1(C)O	33929 (ampicillin-resistant)	>64 µg/mL
CC(=O)NC[C@H]1CN(c2ccc(-c3cc(C#N)cs3)c(F)c2)C(=O)O1	UC 30063	>64 µg/mL
C=C1COC2[C@@H](C)C(=O)[C@H](C)C[C@@](C)(OC1)[C@H](O[C@@H]1O[C@H](C)C[C@H](N(C)C)[C@H]1O)[C@@H](C)C(=O)[C@@H](C)C(=O)O[C@H](CC)[C@@]2(C)O	33929 (ampicillin-resistant)	>64 µg/mL
CC(C)(C)[C@H](NC(=O)C(CC1CCCC1)CN(O)C=O)C(=O)N1CCN(Cc2nccs2)CC1	Isolate 31517	8 µg/mL
CC[C@H]1OC(=O)C[C@@H](O)[C@H](C)[C@@H](O[C@@H]2O[C@H](C)[C@@H](O)[C@H](N(C)C)[C@H]2O)C(C=O)C[C@@H](C)C(=O)/C=C/C(C)=C/[C@@H]1COC	33929 (ampicillin-resistant)	2 µg/mL
CC[C@H]1OC(=O)[C@H](C)[C@@H](O[C@H]2C[C@@](C)(OC)[C@@H](O)[C@H](C)O2)[C@H](C)[C@@H](O[C@H]2O[C@@H](C)C[C@@H](N(C)C)[C@@H]2O)[C@](C)(O)C[C@@H](C)C(=O)[C@H](C)[C@@H](O)[C@]1(C)O	33929 (ampicillin-resistant)	4 µg/mL
CC[C@H]1OC(=O)[C@@](C)(F)C(=O)[C@H](C)[C@@H](O[C@@H]2O[C@H](C)C[C@H](N(C)C)[C@H]2O)[C@@]2(C)C[C@@H](C)C(=NC(C)=O)[C@H](C)[C@@H](OC/C(=N\OCc3ccc(-c4nccs4)nc3)CO2)[C@]1(C)O	33929 (ampicillin-resistant)	4 µg/mL
CC[C@H]1OC(=O)[C@H](C)C(=O)[C@H](C)[C@@H](O[C@@H]2O[C@H](C)C[C@H](N(C)C)[C@H]2O)[C@@]2(C)C[C@@H](C)C(=NC(C)=O)[C@H](C)C(OC/C(=C\C=C\c3ccc(OC)cc3)CO2)[C@]1(C)O	33929 (ampicillin-resistant)	32 µg/mL
CC[C@H]1OC(=O)[C@H](C)C(=O)[C@H](C)[C@@H](O[C@@H]2O[C@H](C)C[C@H](N(C)C)[C@H]2O)[C@@]2(C)C[C@@H](C)C(=NC(C)=O)[C@H](C)[C@@H](OC/C(=N\Oc3ccc(-c4cnccn4)s3)CO2)[C@]1(C)O	33929 (ampicillin-resistant)	4 µg/mL
CC[C@H]1OC(=O)[C@H](C)[C@@H](O[C@H]2C[C@@](C)(OC)[C@@H](O)[C@H](C)O2)[C@H](C)[C@@H](O[C@H]2O[C@@H](C)C[C@@H](N(C)C)[C@@H]2O)[C@](C)(O)C[C@@H](C)C(=O)[C@H](C)[C@@H](O)[C@]1(C)O	33929 (ampicillin-resistant)	4 µg/mL
CC[C@H]1OC(=O)[C@@](C)(F)C(=O)[C@H](C)[C@@H](O[C@@H]2O[C@H](C)C[C@H](N(C)C)[C@H]2O)[C@@]2(C)C[C@@H](C)C(=NC(C)=O)[C@H](C)[C@@H](OC/C(=N\OCc3ccc(N)nc3)CO2)[C@]1(C)O	33929 (ampicillin-resistant)	2 µg/mL
CC(=O)NC[C@H]1CN(c2cc(F)c(N3C[C@@H]4C(N)[C@@H]4C3)c(F)c2)C(=O)O1	ATCC31517	4 µg/mL
CC[C@H]1OC(=O)C[C@@H](O)[C@H](C)[C@@H](O[C@@H]2O[C@H](C)[C@@H](O)[C@H](N(C)C)[C@H]2O)C(C=O)C[C@@H](C)C(=O)/C=C/C(C)=C/[C@@H]1COC(=O)NCc1ccccc1	33929 (ampicillin-resistant)	1 µg/mL
CC[C@H]1OC(=O)[C@@](C)(F)C(=O)[C@H](C)[C@@H](O[C@@H]2O[C@H](C)C[C@H](N(C)C)[C@H]2O)[C@@]2(C)C[C@@H](C)C(=O)[C@H](C)[C@@H](OC/C(=N\OCc3ccc(-n4cccn4)nc3)CO2)[C@]1(C)O	33929 (ampicillin-resistant)	4 µg/mL
CC(=O)NC[C@H]1CN(c2ccc(-c3ccn(C)n3)c(F)c2)C(=O)O1	UC 30063	>64 µg/mL
C=C1COC2[C@@H](C)C(=NC(C)=O)[C@H](C)C[C@@](C)(OC1)[C@H](O[C@@H]1O[C@H](C)C[C@H](N(C)C)[C@H]1O)[C@@H](C)C(=O)[C@@H](C)C(=O)O[C@H](CC)[C@@]2(C)O	33929 (ampicillin-resistant)	>64 µg/mL
CC[C@H]1OC(=O)[C@@](C)(F)C(=O)[C@H](C)[C@@H](O[C@@H]2O[C@H](C)C[C@H](N(C)C)[C@H]2O)[C@@]2(C)C[C@@H](C)C(=NC(C)=O)[C@H](C)[C@@H](OC/C(=N\OCc3ccc(C(N)=O)s3)CO2)[C@]1(C)O	33929 (ampicillin-resistant)	4 µg/mL
C=CCNC(=O)OC[C@H]1/C=C(C)/C=C/C(=O)[C@H](C)CC(C=O)[C@H](O[C@@H]2O[C@H](C)[C@@H](O)[C@H](N(C)C)[C@H]2O)[C@@H](C)[C@H](O)CC(=O)O[C@@H]1CC	33929 (ampicillin-resistant)	1 µg/mL
CC[C@H]1OC(=O)[C@H](C)C(=O)[C@H](C)[C@@H](O[C@@H]2O[C@H](C)C[C@H](N(C)C)[C@H]2O)[C@@]2(C)C[C@@H](C)C(=NC(C)=O)[C@H](C)[C@@H](OC/C(=N\OCC#Cc3ccc(N)nc3)CO2)[C@]1(C)O	33929 (ampicillin-resistant)	4 µg/mL
CNC(=O)C1[C@H]2CN(c3c(F)cc(N4C[C@H](CNC(C)=O)OC4=O)cc3F)C[C@@H]12	ATCC31517	8 µg/mL
C[C@@H]1O[C@@H]1P(=O)(O)O	ATCC31517	4 µg/mL
CC[C@H]1OC(=O)[C@H](C)C(=O)[C@H](C)[C@@H](O[C@@H]2O[C@H](C)C[C@H](N(C)C)[C@H]2O)[C@@]2(C)C[C@@H](C)C(=NC(C)=O)[C@H](C)C(OC/C(=C\C=C\c3ccc(F)cc3)CO2)[C@]1(C)O	33929 (ampicillin-resistant)	16 µg/mL
O=C(NC[C@H]1CN(c2ccc(C3CCS(=O)(=O)CC3)c(F)c2)C(=O)O1)C1CC1	UC 30063	16 µg/mL
CC[C@H]1OC(=O)[C@H](C)C(=O)[C@H](C)[C@@H](O[C@@H]2O[C@H](C)C[C@H](N(C)C)[C@H]2O)[C@@]2(C)C[C@@H](C)C(=NC(C)=O)[C@H](C)[C@@H](OC/C(=N\OCc3ccc(-c4ncccn4)s3)CO2)[C@]1(C)O	33929 (ampicillin-resistant)	8 µg/mL
CC(=O)NC[C@H]1CN(c2ccc(-c3ccn[nH]3)c(F)c2)C(=O)O1	UC 30063	32 µg/mL
CC[C@H]1OC(=O)C[C@@H](O)[C@H](C)[C@@H](O[C@@H]2O[C@H](C)[C@@H](O)[C@H](N(C)C)[C@H]2O)C(C=O)C[C@@H](C)C(=O)/C=C/C(C)=C/[C@@H]1COCOCc1ccccc1	33929 (ampicillin-resistant)	4 µg/mL

5 of the rows above, restated:

compound | strain or isolate | result
CC(=O)NC[C@H]1CN(c2ccc(-c3cc(C#N)cs3)c(F)c2)C(=O)O1 | UC 30063 | >64 µg/mL
CC[C@H]1OC(=O)[C@H](C)C(=O)[C@H](C)[C@@H](O[C@@H]2O[C@H](C)C[C@H](N(C)C)[C@H]2O)[C@@]2(C)C[C@@H](C)C(=NC(C)=O)[C@H](C)C(OC/C(=C\C=C\c3ccc(OC)cc3)CO2)[C@]1(C)O | 33929 (ampicillin-resistant) | 32 µg/mL
CC[C@H]1OC(=O)C[C@@H](O)[C@H](C)[C@@H](O[C@@H]2O[C@H](C)[C@@H](O)[C@H](N(C)C)[C@H]2O)C(C=O)C[C@@H](C)C(=O)/C=C/C(C)=C/[C@@H]1COC | 33929 (ampicillin-resistant) | 2 µg/mL
CC[C@H]1OC(=O)[C@H](C)[C@@H](O[C@H]2C[C@@](C)(OC)[C@@H](O)[C@H](C)O2)[C@H](C)[C@@H](O[C@H]2O[C@@H](C)C[C@@H](N(C)C)[C@@H]2O)[C@](C)(O)C[C@@H](C)C(=O)[C@H](C)[C@@H](O)[C@]1(C)O | 33929 (ampicillin-resistant) | 4 µg/mL
CC[C@H]1OC(=O)C[C@@H](O)[C@H](C)[C@@H](O[C@@H]2O[C@H](C)[C@@H](O)[C@H](N(C)C)[C@H]2O)C(C=O)C[C@@H](C)C(=O)/C=C/C(C)=C/[C@@H]1COC(=O)NCc1ccccc1 | 33929 (ampicillin-resistant) | 1 µg/mL